Values of other authors in article PMC7449170, “ATI-2173, a Novel Liver-Targeted Non-Chain-Terminating Nucleotide for Hepatitis B Virus Cure Regimens” (Antimicrobial Agents and Chemotherapy, 2020).

System: clevudine-resistant mutants
Conditions: mutants from viral break-through patients, predominantly M204I; cited from earlier work

## Nc1ncnc2c1ncn2CCOCP(=O)(O)O [Adefovir]
  Activity against clevudine-resistant mutants: active
